Compound potency records, mixed from different reports. Data source: NIAID ChemDB in PubChem.

All rows: tests on isolated targets; species: HIV-1; protein: gp120; endpoint: inhibition

Neighbouring rows are from separate reports. An empty or dashed field is not shown. Percent inhibition refers to the dose given; in toxicity tests it is the harm to the cells.

smiles	setting	method	strain or isolate	tested at	result
C[n+]1ccc(-c2c3nc(c(-c4cc[n+](C)cc4)c4ccc([nH]4)c(-c4cc[n+](C)cc4)c4nc(c(-c5cc[n+](C)cc5)c5ccc2[nH]5)C=C4)C=C3)cc1				60 µg/mL	28.4%
CC(C)(CS(=O)(=O)[O-])[NH2+]C(=O)C(CC(F)(OC(F)(F)C(F)(OC(F)(F)C(F)(OC(F)(F)C(F)(F)C(F)(F)F)C(F)(F)F)C(F)(F)F)C(F)(F)F)C(F)(OC(F)(F)C(F)(OC(F)(F)C(F)(OC(F)(F)C(F)(F)C(F)(F)F)C(F)(F)F)C(F)(F)F)C(F)(F)F		ELISA		20 µg/mL	76%
COC(=O)C(=O)N1CCC[C@@H]1C(=O)N[C@H](Cc1ccccc1)C(=O)OCc1ccccc1	3% FBS	ELISA		500 µM	17%
O=S(=O)(O)c1cc(O)c2c(NS(=O)(=O)c3ccc(-c4ccc(S(=O)(=O)Nc5cc(S(=O)(=O)O)cc6cc(S(=O)(=O)O)cc(O)c56)cc4)cc3)cc(S(=O)(=O)O)cc2c1		fluorescence		100 µg/mL	66%
CN1C(=O)C(c2cc(Cl)c(O)c(Cl)c2)NC(=O)[C@@H]2NC(=O)C(c3cc(Cl)c(O)c(Cl)c3)NC(=O)[C@H](NC(=O)C(=O)c3cc(Cl)c(O)c(Cl)c3)Cc3c[nH]c4c(cccc34)-c3cc2cc(c3O)Oc2ccc(cc2)CC1C(=O)NC(C(=O)O)c1ccc(O)cc1		ELISA		10 µM	83%
C=CC1=C(C)C2=NC1=CC1=NC(=CC3=C(C)C(=C([O-])[O-])C(=N3)C(CC(=O)O)=C3NC(=C2)C(C)C3CCC(=O)O)C(CC)=C1C.[Mg+2]				60 µg/mL	73.7%
O=C(OC[C@H]1O[C@@H](O)[C@@H]2OC(=O)c3cc(O)c(O)c(O)c3-c3c(cc(O)c(O)c3O)C(=O)O[C@H]2[C@@H]1OC(=O)c1cc(O)c(O)c(O)c1Oc1cc2c(c(O)c1O)-c1c(cc(O)c(O)c1O)C(=O)O[C@@H]1[C@@H](OC2=O)[C@H](OC(=O)c2cc(O)c(O)c(O)c2)O[C@@H]2COC(=O)c3cc(O)c(O)c(O)c3-c3c(cc(O)c(O)c3O)C(=O)O[C@@H]12)c1cc(O)c(OC(=O)c2cc(O)c(O)c(O)c2)c(O)c1		binding		1.56 µg/mL	73.6%
C1=Cc2nc1c(-c1ccncc1)c1ccc([nH]1)c(-c1ccncc1)c1nc(c(-c3ccncc3)c3ccc([nH]3)c2-c2ccncc2)C=C1				60 µg/mL	66.4%
O=C(Oc1cc(O)cc2c1C[C@@H](OC(=O)c1cc(O)c(O)c(O)c1)[C@@H](c1cc(O)c(O)c(O)c1)O2)c1cc(O)c(O)c(O)c1		ELISA		20 µM	0.8%
O=S(=O)(O)c1ccc(-c2c3nc(c(-c4ccc(S(=O)(=O)O)cc4)c4ccc([nH]4)c(-c4ccc(S(=O)(=O)O)cc4)c4nc(c(-c5ccc(S(=O)(=O)O)cc5)c5ccc2[nH]5)C=C4)C=C3)cc1				60 µg/mL	37.7%
COc1ccnc2[nH]cc(C(=O)C(=O)N3CCN(C(=O)c4ccccc4)C[C@H]3C)c12		ELISA	YU2	1 µM	76.5%
O=CC(O)C(OC(=O)c1cc(O)c(O)c(O)c1)C1OC(=O)c2cc(O)c(O)c(O)c2-c2c(cc(O)c(O)c2O)C(=O)OCC1O		binding		3.13 µg/mL	39.1%
O=C(O[C@H]1Cc2c(O)cc(O)cc2O[C@@H]1c1cc(O)c(O)c(O)c1)c1cc(O)c(O)c(O)c1		ELISA		20 µM	0.6%
O=CC1OC(=O)c2cc(O)c(O)c(O)c2Oc2cc3c(c(O)c2O)-c2c(cc(O)c(O)c2O)C(=O)OCC2OC(OC(=O)c4cc(O)c(O)c(O)c4Oc4cc5c(c(O)c4O)-c4c(cc(O)c(O)c4O)C(=O)OC(C(O)COC5=O)C1OC(=O)c1cc(O)c(O)c(O)c1)C(OC(=O)c1cc(O)c(O)c(O)c1)C(OC(=O)c1cc(O)c(O)c(O)c1)C2OC3=O		binding		1.56 µg/mL	62%
CC1=C(CCC(=O)O)c2cc3[nH]c(cc4[nH]c(cc5nc(cc1n2)C(CCC(=O)O)=C5CC(=O)O)c(CCC(=O)O)c4CC(=O)O)c(CCC(=O)O)c3CC(=O)O				60 µg/mL	21%
NOCc1c(F)cccc1Cl		ELISA		0.16 µg/mL	0%

Again, the opening 2 rows:

| smiles | setting | method | strain or isolate | tested at | result |
|---|---|---|---|---|---|
| C[n+]1ccc(-c2c3nc(c(-c4cc[n+](C)cc4)c4ccc([nH]4)c(-c4cc[n+](C)cc4)c4nc(c(-c5cc[n+](C)cc5)c5ccc2[nH]5)C=C4)C=C3)cc1 |  |  |  | 60 µg/mL | 28.4% |
| CC(C)(CS(=O)(=O)[O-])[NH2+]C(=O)C(CC(F)(OC(F)(F)C(F)(OC(F)(F)C(F)(OC(F)(F)C(F)(F)C(F)(F)F)C(F)(F)F)C(F)(F)F)C(F)(F)F)C(F)(OC(F)(F)C(F)(OC(F)(F)C(F)(OC(F)(F)C(F)(F)C(F)(F)F)C(F)(F)F)C(F)(F)F)C(F)(F)F |  | ELISA |  | 20 µg/mL | 76% |